Earlier results in article PMC3621123 (Journal of medicinal chemistry, 2013).

Amino acid sequences for entries named in this document (tags omitted). A change or cut given only in a name is not applied to a line headed by its entry.
UniProt P71716: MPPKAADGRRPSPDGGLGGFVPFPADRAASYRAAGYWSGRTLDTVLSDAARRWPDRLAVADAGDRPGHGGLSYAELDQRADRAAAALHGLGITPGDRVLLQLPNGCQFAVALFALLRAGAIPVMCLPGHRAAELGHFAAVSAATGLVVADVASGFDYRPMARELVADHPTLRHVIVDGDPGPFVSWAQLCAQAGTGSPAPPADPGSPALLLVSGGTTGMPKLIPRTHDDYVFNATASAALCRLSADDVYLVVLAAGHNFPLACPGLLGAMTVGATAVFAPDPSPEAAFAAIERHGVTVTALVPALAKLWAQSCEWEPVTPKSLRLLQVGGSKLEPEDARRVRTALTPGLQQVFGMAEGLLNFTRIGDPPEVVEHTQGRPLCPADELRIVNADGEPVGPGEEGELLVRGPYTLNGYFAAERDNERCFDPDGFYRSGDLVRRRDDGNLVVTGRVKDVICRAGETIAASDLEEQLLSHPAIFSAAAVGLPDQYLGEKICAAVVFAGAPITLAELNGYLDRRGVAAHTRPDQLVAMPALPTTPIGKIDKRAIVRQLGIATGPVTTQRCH

Target: MbtA (Mycobacterium tuberculosis, UniProt P71716)
Details: read-out: KD1, equilibrium dissociation constant of probe 14 for MbtA; cited from earlier work

22-O-{2-[2-(2-{[(fluorescein-5-yl)carbonyl]amino}ethoxy)ethoxy]ethoxy}-52-O-[N-(salicyl)sulfamoyl]adenosine [Compound 14]
Kd: 9.26 nM
